Anti-infective test results gathered from many reports (values: NIAID ChemDB through PubChem).

Common to all: target-level tests; organism: Hepatitis B virus; protein: DNA polymerase; measure: IC50

Blank or dashed fields: not listed here.

compound	strain or isolate	result
Nc1nc2c(ncn2CCC(CO)COP(=O)(O)OP(=O)(O)OP(=O)(O)O)c(=O)[nH]1		8 µM
COc1nc(NCCO)nc(Nc2ccc3[nH]ncc3c2)n1		0.1–1 µg/mL
Cc1ccc(C(=O)NC(C)C)c(Nc2ccc3cn[nH]c3c2)n1		<0.01 µg/mL
NC1C=CN([C@@H]2O[C@H](COP(=O)(O)OP(=O)(O)OP(=O)(O)O)[C@@H](O)[C@@H]2O)C(=O)N1		1.1 µM
CNC(=O)c1ccc(C)nc1Nc1ccc2cn[nH]c2c1		0.1 µg/mL
COc1nc(Nc2ccc3[nH]ncc3c2)nc(NN2CCOCC2)n1		0.1–1 µg/mL
CCN(CC)CCNC(=O)c1ccc(C)nc1Nc1ccc2cn[nH]c2c1		~1 µg/mL
COc1nc(Nc2ccc3cn[nH]c3c2)nc(N2CCN(C(=O)c3cccnc3)CC2)n1		>1 µg/mL
Cc1cn([C@H]2C=C[C@@H](COP(=O)(O)OP(=O)(O)OP(=O)(O)O)O2)c(=O)nc1N		8 µM
COc1nc(NCCCn2ccnc2)nc(Nc2ccc3cn[nH]c3c2)n1		0.1–1 µg/mL
Nc1ccn([C@H]2CS[C@@H](COP(=O)(O)OP(=O)(O)OP(=O)(O)O)O2)c(=O)n1	WILD TYPE	0.0075 µM
Cc1ccc(C(=O)NC(C)C)c(Nc2ccc3[nH]ncc3c2)n1		~0.1 µg/mL
COc1nc(NCCc2ccccn2)nc(Nc2ccc3cn[nH]c3c2)n1		>1 µg/mL
Nc1nc2c(ncn2CC[C@@H](CO)COP(=O)(O)OP(=O)(O)OP(=O)(O)O)c(=O)[nH]1		11 µM
Cc1ccc(C(=O)NC(C)(C)C)c(Nc2ccc3cn[nH]c3c2)n1		<1 µg/mL
COc1nc(Nc2ccc3cn[nH]c3c2)nc(N2CCN(C)CC2)n1		0.1–1 µg/mL
Cc1ccc(C(=O)NN2CCOCC2)c(Nc2ccc3cn[nH]c3c2)n1		~0.1 µg/mL
Cc1cn([C@H]2O[C@@H](CO)[C@H](O)[C@H]2F)c(=O)[nH]c1=O		0.1 µM

For reference, 2 entries again:

compound,strain or isolate,result
Nc1nc2c(ncn2CC[C@@H](CO)COP(=O)(O)OP(=O)(O)OP(=O)(O)O)c(=O)[nH]1,,11 µM
Cc1ccc(C(=O)NC(C)C)c(Nc2ccc3cn[nH]c3c2)n1,,<0.01 µg/mL

Two numbers with a dash give a range or band. Lines come from different laboratories, so protocols vary. ICn: concentration for n% inhibition.